A mixed list of measured activities; the numbers were collected in NIAID ChemDB.

Shared fields: tests on isolated targets

ICn is the concentration giving n% inhibition. Inhibition is in % at the dose shown (toxicity tests: loss of growth or viability). Fold resistance: result on the changed form divided by that on wild type. Lines come from different laboratories, so protocols vary. a–b is a range or a potency band. Blank or dashed fields: not listed here.

| SMILES | mutations | method | dose | protein | species | strain | measure | result |
|---|---|---|---|---|---|---|---|---|
| Cc1nc(N)c2ncn([C@@H]3O[C@H](COC(=O)c4ccc(S(=O)(=O)F)cc4)[C@@H](O)[C@H]3O)c2n1 | - | - | 300 µM | NTPase/helicase | West Nile virus | - | inhibition | 34% |
| O=C(O)C(Cl)(Br)P(=O)(O)O | - | - | 100 µM | DNA polymerase | Epstein-Barr virus | - | inhibition | 33% |
| CCc1c[nH]c(=O)[nH]c1=O | - | - | - | Uracil phosphoribosyltransferase | Toxoplasma gondii | RH | IC50 | >2000 µM |
| Nc1nc(N)c2c(n1)-c1ccsc1CC2 | - | - | - | Dihydrofolate reductase | Cryptosporidium parvum | - | IC50 | >10 µM |
| O=c1c[n+]([O-])cc[nH]1 | - | - | - | Uracil phosphoribosyltransferase | Toxoplasma gondii | RH | Ki | 270 µM |
| CCCCCCCCCCCNc1nnc(NC(=O)CCCCCl)s1 | - | - | - | Polymerase | Human cytomegalovirus | - | IC50 | <25 µM |
| O=c1cc[nH]cc1 | - | - | - | Uracil phosphoribosyltransferase | Toxoplasma gondii | RH | IC50 | >2000 µM |
| CCCCCCCCCCCC(C(=O)O)P(=O)(O)O | - | - | - | DNA polymerase | Duck hepatitis B virus | - | IC50 | >100 µM |
| O=P(O)(O)C(Br)(Br)P(=O)(O)O | - | - | - | DNA polymerase | Epstein-Barr virus | - | IC50 | >100 µM |
| Cc1ccccc1S(=O)(=O)Nc1cc(-c2ccc(F)c(Cl)c2)sc1C(=O)O | - | - | - | NS3 ATPase | Hepatitis C virus | - | IC50 | 5–20 µM |
| CCCCCCCCCC(C(=O)O)P(=O)(O)O | - | - | - | DNA polymerase | Duck hepatitis B virus | - | IC50 | >100 µM |
| CCC(CC)Nc1cc(C(=O)O)ccc1N1C(=O)CCC1(CN)CO | - | - | - | Neuraminidase | Influenza A virus | Subtype N2 | IC50 | 0.52 µM |
| O=C(Nc1nnc(NCCc2ccccc2)s1)c1ccc2c(c1)C(=O)OC2=O | - | - | - | Polymerase | Human cytomegalovirus | - | IC50 | <25 µM |
| c1ccc(C2SCc3nc4ccccc4n32)cc1 | RT-K103N Y181I | - | - | Reverse transcriptase | HIV | - | fold resistance | >2 |
| O=c1[nH]cc(F)c(=O)[nH]1 | - | - | - | Uracil phosphoribosyltransferase | Toxoplasma gondii | RH | Ki | 280 µM |
| O=P(O)(O)C(F)(Br)P(=O)(O)O | - | - | - | DNA polymerase | Herpes simplex virus 2 | - | IC50 | >100 µM |
| O=C/C=C/c1ccccc1 | - | - | - | Chitin synthase 2 | Saccharomyces cerevisiae | - | Ki | 1610 µM |
| CO[P@](=O)(c1cc(C)cc(/C=C/C#N)c1)c1c(C(N)=O)[nH]c2ccc(Cl)c(F)c12 | M184V | - | - | Reverse transcriptase | HIV | - | IC50 | 0.29 µM |
| COc1cc(Cc2sc3nc(N)nc(N)c3c2C)c(Br)c(OC)c1OC | - | - | - | Dihydrofolate reductase | Cryptosporidium parvum | - | IC50 | 10 µM |
| O=C(O)C(F)(Cl)P(=O)(O)O | - | - | - | DNA polymerase | Epstein-Barr virus | - | IC50 | >100 µM |
| CC1(C)N=C(N)N=C(N)N1c1ccc(CCCCc2ccccc2)cc1 | - | - | - | DHFR | Toxoplasma gondii | RH | IC50 | 0.026 µM |
| Cc1ccc(C(=O)N(c2cc(-c3ccccc3)sc2C(=O)O)C2CC[NH2+]CC2)cc1 | - | - | - | NS3 ATPase | Hepatitis C virus | - | IC50 | <5 µM |
| CCc1nc(N)nc(N)c1-c1ccc(N(CC)Cc2ccccc2)c([N+](=O)[O-])c1 | - | - | - | DHFR | Toxoplasma gondii | RH | IC50 | 0.17 µM |
| O=C(O)C(CCCC12CC3CC(CC(C3)C1)C2)P(=O)(O)O | - | - | - | DNA polymerase | Duck hepatitis B virus | - | IC50 | >100 µM |
| CC1(C)N=C(N)N=C(N)N1c1cccc(OCc2cccc([N+](=O)[O-])c2)c1 | - | - | - | DHFR | Toxoplasma gondii | RH | IC50 | 0.14 µM |
| Clc1ncccn1 | - | - | 2000 µM | Uracil phosphoribosyltransferase | Toxoplasma gondii | RH | inhibition | <5% |
| C[C@H]([C@@H](O)c1ccccc1)N(C(=O)c1ccc(Cl)cc1Cl)c1cc(-c2ccccc2)sc1C(=O)O.C[Si](C)C(C)(C)C | - | - | - | NS3 ATPase | Hepatitis C virus | - | IC50 | 5–20 µM |
| O=C(O)c1cc(=O)[nH]c(=O)[nH]1 | - | - | - | Uracil phosphoribosyltransferase | Toxoplasma gondii | RH | IC50 | >2000 µM |
| O=C(O)CCCCCCCCCCC(C(=O)O)P(=O)(O)O | - | - | - | DNA polymerase | Duck hepatitis B virus | - | IC50 | >100 µM |
| CCCCCCCC/C=C/CCCCCCCC(=O)Nc1nnc(NC2CCCCCC2)s1 | - | - | - | Polymerase | Human cytomegalovirus | - | IC50 | <25 µM |
| O=C(O)C(Br)(Br)P(=O)(O)O | - | - | 100 µM | DNA polymerase | Herpes simplex virus 2 | - | inhibition | 4% |
| CC(C)N(C(=O)c1cc(-c2ccccc2)sc1C(=O)O)c1ccc(Cl)cc1Cl | - | - | - | NS3 ATPase | Hepatitis C virus | - | IC50 | <5 µM |
| COc1ccc(CC2CCc3nc(N)nc(N)c3C2)cc1 | - | - | - | Dihydrofolate reductase | Cryptosporidium parvum | - | IC50 | 0.36 µM |
| Cc1csc2nc([C@H](C)NC(=O)/C=C/c3ccc(N(C)C)cc3)oc(=O)c12 | - | - | - | Protease | Varicella zoster virus | - | IC50 | 0.028 µM |
| O=C(Nc1cc(-c2ccccc2)sc1C(=O)O)c1ccccc1Br | - | - | - | NS3 ATPase | Hepatitis C virus | - | IC50 | <5 µM |
| CC1(C)N=C(N)N=C(N)N1c1ccc(N)cc1 | - | - | - | DHFR | Toxoplasma gondii | RH | IC50 | 1.44 µM |
| O=C(Nc1nnc(NC2CCCCCC2)s1)c1cccc([N+](=O)[O-])c1 | - | - | - | Polymerase | Human cytomegalovirus | - | IC50 | >25 µM |
| O=C(CN1C(=O)SC(=Cc2ccccc2OC(F)(F)F)C1=O)N1CCN(c2ccccc2)CC1 | - | fluorescence | - | Falcipain-2 | Plasmodium falciparum | - | IC50 | 35.28 µM |
| CN1Cc2c(c3c4ccccc4n(C)c3c3c2c2ccccc2n3CCC#N)C1=O | - | - | - | Tyrosine kinase | - | - | IC50 | >10 µM |
| CC(C)c1cc(C(C)C)c(C(=O)Nc2nnc(NCCC3CCCN3C)s2)c(C(C)C)c1 | - | - | - | Polymerase | Human cytomegalovirus | - | IC50 | <25 µM |
| O=c1nc[nH]c(=O)[nH]1 | - | - | - | Uracil phosphoribosyltransferase | Toxoplasma gondii | RH | Ki | 930 µM |
| CN(Cc1ccc2nc(N)nc(N)c2n1)c1ccccc1Cl | - | - | - | Dihydrofolate reductase | Cryptosporidium parvum | - | IC50 | 0.65 µM |
| O=P(O)(O)C(Cl)P(=O)(O)O | - | - | - | DNA polymerase | Epstein-Barr virus | - | IC50 | >100 µM |
| Nc1ncnc2c1ncn2[C@@H]1O[C@H](COC(=O)c2ccc(S(=O)(=O)F)cc2)[C@@H](O)[C@H]1O | - | - | 300 µM | NTPase/helicase | West Nile virus | - | inhibition | 16% |
| COc1cc(OC)c(C=C2SC(=O)N(CC(=O)N3CCN(C4CCCCC4)CC3)C2=O)c(OC)c1 | - | fluorescence | - | Falcipain-2 | Plasmodium falciparum | - | IC50 | >50 µM |
| CC1(C)N=C(N)N=C(N)N1c1ccccc1Cl | - | - | - | DHFR | Toxoplasma gondii | RH | IC50 | 84.6 µM |
| O=C(O)C(Cl)P(=O)(O)O | - | - | 100 µM | DNA polymerase | Herpes simplex virus 2 | - | inhibition | 96% |
| COc1ccc(C=C2SC(=O)N(CC(=O)N3CCN(c4ccccc4)CC3)C2=O)c(OC)c1 | - | fluorescence | - | Falcipain-2 | Plasmodium falciparum | - | IC50 | >50 µM |
| CCC(CC)Nc1cc(C(=O)O)ccc1N1C(=O)CCC1(CO)CCN | - | - | - | Neuraminidase | Influenza A virus | Subtype N2 | IC50 | 41 µM |
| COc1cc(OC)c(C=C2SC(=O)N(CC(=O)N3CCN(c4ccncc4)CC3)C2=O)c(OC)c1 | - | fluorescence | - | Falcipain-2 | Plasmodium falciparum | - | IC50 | >50 µM |
| O=P(O)(O)C(Cl)(Br)P(=O)(O)O | - | - | - | DNA polymerase | Herpes simplex virus 2 | - | IC50 | >100 µM |
| Cn1c2ccccc2c2c3c(c4c5ccccc5n(CC(F)F)c4c21)CNC3=O | - | - | - | cAMP-dependent protein kinase | - | - | IC50 | 2.4 µM |
| CC1(C)N=C(N)N=C(N)N1c1cccc(OCCCOc2ccc([N+](=O)[O-])cc2)c1 | - | - | - | DHFR | Toxoplasma gondii | RH | IC50 | 0.03 µM |
| Cn1c2ccccc2c2c3c(c4c5ccccc5n(CCC#N)c4c21)CNC3=O | - | - | - | cAMP-dependent protein kinase | - | - | IC50 | >100 µM |
| NC(=O)c1cnccn1 | - | - | 2000 µM | Uracil phosphoribosyltransferase | Toxoplasma gondii | RH | inhibition | <5% |

7 of the rows above, restated:

SMILES,mutations,method,dose,protein,species,strain,measure,result
CCCCCCCCCC(C(=O)O)P(=O)(O)O,-,-,-,DNA polymerase,Duck hepatitis B virus,-,IC50,>100 µM
COc1ccc(CC2CCc3nc(N)nc(N)c3C2)cc1,-,-,-,Dihydrofolate reductase,Cryptosporidium parvum,-,IC50,0.36 µM
CN1Cc2c(c3c4ccccc4n(C)c3c3c2c2ccccc2n3CCC#N)C1=O,-,-,-,Tyrosine kinase,-,-,IC50,>10 µM
O=P(O)(O)C(Cl)(Br)P(=O)(O)O,-,-,-,DNA polymerase,Herpes simplex virus 2,-,IC50,>100 µM
CCC(CC)Nc1cc(C(=O)O)ccc1N1C(=O)CCC1(CN)CO,-,-,-,Neuraminidase,Influenza A virus,Subtype N2,IC50,0.52 µM
CC1(C)N=C(N)N=C(N)N1c1cccc(OCc2cccc([N+](=O)[O-])c2)c1,-,-,-,DHFR,Toxoplasma gondii,RH,IC50,0.14 µM
O=c1nc[nH]c(=O)[nH]1,-,-,-,Uracil phosphoribosyltransferase,Toxoplasma gondii,RH,Ki,930 µM